system: BoNT/E; details: Table 1, C-terminal truncated peptides, Pep-7/Pep-8 = 100

Substance | NT-product (%), relative production of the cleavage product [%]
IIGNLRHMALDMGNEIDTQNRQIDRIM | 10
IIGNLRHMALDMGNEIDTQNRQIDRIME | 15
IIGNLRHMALDMGNEIDTQNRQIDRIMEK | 58
IIGNLRHMALDMGNEIDTQNRQIDRIMEKA | 77
IIGNLRHMALDMGNEIDTQNRQIDRIMEKAD | 68
IIGNLRHMALDMGNEIDTQNRQIDRIMEKADSN | 81
IIGNLRHMALDMGNEIDTQNRQIDRIMEKADSNKTRIDEANQRATKMLGSG | 100

same assay, conditions: Table 1, N-terminal truncated peptides, Pep-1 = 100

Substance | CT-product (%), relative production of the cleavage product [%]
DMGNEIDTQNRQIDRIMEKADSNKTRIDEANQRATKMLGSG | 19
IDTQNRQIDRIMEKADSNKTRIDEANQRATKMLGSG | 0
IIGNLRHMALDMGNEIDTQNRQIDRIMEKADSNKTRIDEANQRATKMLGSG | 89
RHMALDMGNEIDTQNRQIDRIMEKADSNKTRIDEANQRATKMLGSG | 28

same assay, conditions: Table 2, Pep-19 = 100

Substance | NT-product (%), relative production of the N-terminal product [%]
IIIGNLRHMALDMGNEIDTQNRQIDRIMEKADSN | 52
IIIGNLRHMALDMGNEIDTQNRQIDRIMEKADSNKT | 130
IIIGNLRHMALDMGNEIDTQNRQIDRIMEKADSNKTR | 117
IIIGNLRHMALDMGNEIDTQNRQIDRIMEKADSNKTRI | 100

same assay, conditions: Table 2, truncated or modified peptides, Pep-8 = 100

Substance | CT-product (%), relative production of the C-terminal product [%]
GIIGNLRHMALDMGNEIDTQNRQIDRIMEKADSNKT | 81
GNLRHMALDMGNEIDTQNRQIDRIMEKADSNKT | 60
IGNLRHMALDMGNEIDTQNRQIDRIMEKADSNKT | 73
IIIGNLRHMALDMGNEIDTQNRQIDRIMEKADSN | 24
IIIGNLRHMALDMGNEIDTQNRQIDRIMEKADSNKT | 123
IIIGNLRHMALDMGNEIDTQNRQIDRIMEKADSNKTR | 2678
IIIGNLRHMALDMGNEIDTQNRQIDRIMEKADSNKTRI | 2460

same assay, conditions: Table 3, internally deleted peptides, Pep-20 = 100

Substance | CT-product (%), relative production of the C-terminal product [%]
IIIGNLRHMALDMGNEIDTQNRQIDRIMEKADSNKTR | 100
IIIGNLRHMALDMGNE_____RQIDRIMEKADSNKTR | 6
IIIGNLRHMAL_____IDTQNRQIDRIMEKADSNKTR | 17
IIIGNL____LDMGNEIDTQNRQIDRIMEKADSNKTR | 53
IIIGNL_____DMGNEIDTQNRQIDRIMEKADSNKTR | 90
IIIGNL______MGNEIDTQNRQIDRIMEKADSNKTR | 33
IIIGNL_______GNEIDTQNRQIDRIMEKADSNKTR | 88
IIIGNL________NEIDTQNRQIDRIMEKADSNKTR | 2
IIIGN______DMGNEIDTQNRQIDRIMEKADSNKTR | 19
IIIG_______DMGNEIDTQNRQIDRIMEKADSNKTR | 43
III________DMGNEIDTQNRQIDRIMEKADSNKTR | 30

same assay, conditions: Table 3, second series, Pep-29 = 100

Substance | CT-product (%), relative production of the C-terminal product [%] | NT-product (%), relative production of the N-terminal product [%]
IIIGNL_______GNEIDTQNRQIDRIMEKADSNKTR | 100 | 100
IIIGNL_______GNEIDTQNRQIDRIMEKADSNR | 104 | 84

same assay, conditions: Table 5, multiple mutations, Pep-44 = 100

Substance | CT-product (%)
IIIAKLGNEIDTQNRQKDRIMAKADSNKR | 122
IIIAKLGNEIDTRNRQIDRIMEKADSNKR | 101
IIIAKLGNEIDTRNRQKDRIMAKADSNKR | 137
IIIAKLGNEIDTRNRQKDRIMEKAKSKKR | 44
IIIAKLGQEIDTRNRQKDRIMEKADSNKR | 152
IIIGKLGNEIDTRNRQIDRIMEKADSNKR | 103
IIIGNLGNEIDTQNRQIDRIKAKAKSKKR | 131
IIIGNLGNEIDTQNRQIDRIMEKAKKKKR | 134
IIIGNLGNEIDTQNRQIDRIMEKAKRKKR | 132
IIIGNLGNEIDTQNRQIDRIMEKAKSKKR | 123
IIIGNLGNEIDTQNRQIDRIMEKAKSNKR | 100
IIIGNLGNEIDTQNRQIDRIMEKARRKKR | 128

From US10408837B2 (priority 2013, dated 2019)
